Experimental data as given in patent US20040076637A1, “HIV-derived HR1 peptides modified to form stable trimers, and their use in therapy to inhibit transmission of human immunodeficiency virus” (priority 2002, published 2004).

Experiment: Thermal stability (Tm) by CD signal at 222 nm
Assay type: physicochemical
Conditions: at 10 μM
Description: Helicity was assessed by circular dichroism (“CD”) as follows. Briefly, CD spectra were obtained using a spectrometer equipped with a thermoelectric temperature controller. The spectra was obtained at 25° C. with 0.5 nanometer (nm) steps from 200 to 260 nm, with a 1.5 nm bandwith, and a typical averaging time of 4 seconds/step. After the cell/buffer blank was subtracted, spectra were smoothed using a third-order least-squares polynomial fit with a conservative window size to give random residuals. Raw ellipticity values were converted to mean residue ellipticity using standard methods, and plotted was the wavelength (from 200 to 260 nm) versus [θ]×10^−3 (degrees cm^2/dmol). Percent helicity values were then calculated using standard methods. Assessment of thermal stability was performed by monitoring the change in CD signal at 222 nm as temperature was raised in 2° C. steps, with 1 minute equilibration times. The thermal stability for each sample (e.g., synthetic peptide) was represented by the transition temperature (Tm) determined by the derivative method.

Compound	Stability Tm
CC[C@H](C)[C@H](NC(=O)CNC(=O)[C@H](Cc1c[nH]c2ccccc12)NC(=O)[C@@H](NC(=O)[C@@H](NC(=O)[C@H](CC(C)C)NC(=O)[C@H](CCC(N)=O)NC(=O)[C@H](CC(C)C)NC(=O)[C@H](CC(C)C)NC(=O)[C@H](Cc1c[nH]cn1)NC(=O)[C@H](CCC(N)=O)NC(=O)[C@@H](NC(=O)[C@H](C)NC(=O)[C@H](CCC(=O)O)NC(=O)[C@@H](NC(=O)[C@H](C)NC(=O)[C@H](CCCNC(=N)N)NC(=O)[C@H](CC(C)C)NC(=O)[C@H](CC(C)C)NC(=O)[C@H](CC(N)=O)NC(=O)[C@H](CC(N)=O)NC(=O)[C@H](CCC(N)=O)NC(=O)[C@H](CCC(N)=O)NC(=O)[C@H](CCC(N)=O)NC(=O)[C@@H](NC(=O)[C@@H](NC(=O)CNC(=O)[C@H](CO)NC(=O)[C@H](CC(C)C)NC(=O)[C@H](CC(C)C)NC(=O)[C@H](CCC(N)=O)NC(=O)[C@H](CCCNC(=N)N)NC(=O)[C@@H](NC(=O)[C@H](CCC(N)=O)NC(C)=O)[C@@H](C)CC)[C@@H](C)CC)C(C)C)[C@@H](C)CC)[C@@H](C)CC)[C@@H](C)CC)C(C)C)C(=O)N[C@@H](CCCCN)C(=O)N[C@@H](CCC(N)=O)C(=O)N[C@@H](CC(C)C)C(=O)N[C@@H](CCC(N)=O)C(=O)N[C@@H](C)C(=O)N[C@@H](CCCNC(=N)N)C(=O)N[C@H](C(=O)N[C@@H](CC(C)C)C(=O)N[C@@H](C)C(=O)N[C@H](C(=O)N[C@@H](CCC(=O)O)C(=O)N[C@@H](CCCNC(=N)N)C(=O)N[C@@H](Cc1ccc(O)cc1)C(=O)N[C@@H](CC(C)C)C(=O)N[C@@H](CCCCN)C(N)=O)C(C)C)[C@@H](C)CC [SEQ ID NO: 42]	Tm > 97 °C
CC[C@H](C)[C@H](NC(=O)[C@H](Cc1ccc(O)cc1)NC(=O)[C@H](CCCNC(=N)N)NC(=O)[C@H](CCC(=O)O)NC(=O)[C@H](CC(C)C)NC(=O)[C@H](C)NC(=O)[C@H](CC(C)C)NC(=O)[C@@H](NC(=O)[C@H](CCCNC(=N)N)NC(=O)[C@H](C)NC(=O)[C@H](CCC(N)=O)NC(=O)[C@H](CC(C)C)NC(=O)[C@H](CCC(N)=O)NC(=O)[C@H](CCCCN)NC(=O)[C@@H](NC(=O)CNC(=O)[C@H](Cc1c[nH]c2ccccc12)NC(=O)[C@@H](NC(=O)[C@H](CC(C)C)NC(=O)[C@H](CC(C)C)NC(=O)[C@H](CCC(N)=O)NC(=O)[C@@H](NC(=O)[C@H](CC(C)C)NC(=O)[C@H](Cc1c[nH]cn1)NC(=O)[C@H](CCC(N)=O)NC(=O)[C@@H](NC(=O)[C@H](C)NC(=O)[C@H](CCC(=O)O)NC(=O)[C@H](CC(C)C)NC(=O)[C@H](C)NC(=O)[C@H](CCCNC(=N)N)NC(=O)[C@H](CC(C)C)NC(=O)[C@@H](NC(=O)[C@H](CC(N)=O)NC(=O)[C@H](CC(N)=O)NC(=O)[C@H](CCC(N)=O)NC(=O)[C@H](CCC(N)=O)NC(=O)[C@H](CCC(N)=O)NC(=O)[C@@H](NC(=O)[C@H](CC(C)C)NC(=O)CNC(=O)[C@H](CO)NC(=O)[C@@H](NC(=O)[C@H](CC(C)C)NC(=O)[C@H](CCC(N)=O)NC(=O)[C@H](CCCNC(=N)N)NC(=O)[C@H](C)NC(=O)[C@H](CCC(N)=O)NC(C)=O)C(C)C)C(C)C)[C@@H](C)CC)[C@@H](C)O)C(C)C)C(C)C)C(C)C)C(C)C)C(=O)N[C@@H](CCCCN)C(N)=O [SEQ ID NO: 41]	Tm > 97 °C
CC[C@H](C)[C@H](NC(=O)[C@H](Cc1ccc(O)cc1)NC(=O)[C@H](CCCNC(=N)N)NC(=O)[C@H](CCC(=O)O)NC(=O)[C@H](CC(C)C)NC(=O)[C@H](C)NC(=O)[C@H](CC(C)C)NC(=O)[C@@H](NC(=O)[C@H](CCCNC(=N)N)NC(=O)[C@H](C)NC(=O)[C@H](CCC(N)=O)NC(=O)[C@H](CC(C)C)NC(=O)[C@H](CCC(N)=O)NC(=O)[C@H](CCCNC(=N)N)NC(=O)[C@@H](NC(=O)CNC(=O)[C@H](Cc1c[nH]c2ccccc12)NC(=O)[C@@H](NC(=O)[C@H](CC(C)C)NC(=O)[C@H](C)NC(=O)[C@H](CCC(N)=O)NC(=O)[C@@H](NC(=O)[C@H](C)NC(=O)[C@H](Cc1c[nH]cn1)NC(=O)[C@H](CCC(N)=O)NC(=O)[C@@H](NC(=O)[C@H](C)NC(=O)[C@H](CCC(=O)O)NC(=O)[C@H](CC(C)C)NC(=O)[C@H](C)NC(=O)[C@H](CCCNC(=N)N)NC(=O)[C@H](CC(C)C)NC(=O)[C@@H](NC(=O)[C@H](CC(N)=O)NC(=O)[C@H](CC(N)=O)NC(=O)[C@H](CCC(N)=O)NC(=O)[C@H](CCC(N)=O)NC(=O)[C@H](CCC(N)=O)NC(=O)[C@@H](NC(=O)[C@H](CC(C)C)NC(=O)CNC(=O)[C@H](CO)NC(=O)[C@@H](NC(=O)[C@H](CC(C)C)NC(=O)[C@H](CCC(N)=O)NC(=O)[C@H](CCCNC(=N)N)NC(=O)[C@H](C)NC(=O)[C@H](CCC(N)=O)NC(C)=O)C(C)C)C(C)C)[C@@H](C)CC)[C@@H](C)O)C(C)C)C(C)C)C(C)C)C(C)C)C(=O)N[C@@H](CCCCN)C(N)=O [SEQ ID NO: 37]	> 97 °C
